A mixed list of measured activities; the numbers were collected in NIAID ChemDB.

Common to all: growth or infection tests; organism: Aspergillus fumigatus; read-out: MIC

a–b is a range or a potency band. An empty or dashed field is not shown. Rows are shuffled and stem from different studies.

smiles | strain or isolate | method | result
O=c1ccc2cc(O)ccc2o1 | ATCC 16913 | - | >1000 µg/mL
COc1ccc(Oc2c(C3C(C#N)=C(N)OC4=C3C(=O)CC(C)(C)C4)c(C)nn2-c2ccc(C)cc2)cc1 | MTCC 3008 | - | 500 µg/mL
COc1ccc(/C=C/C(=O)c2ccc(OC)c(OC)c2)cc1OC | ATCC 26934 | - | >50 µg/mL
COc1ccc(Oc2c(C3C(C#N)=C(N)OC4=C3C(=O)CC(C)(C)C4)c(C)nn2-c2ccccc2)cc1 | MTCC 3008 | - | 250 µg/mL
C[C@@H](c1ncncc1F)[C@](O)(Cn1cncn1)c1ccc(F)cc1F | - | - | 0.125–16 µg/mL
COc1ccc(OC)c(C(=O)/C=C/c2cc3cc(OC)c(OC)cc3nc2Cl)c1 | ATCC 26934 | - | >50 µg/mL
COc1ccc2nc(Sc3ccccc3)c(C3C(C#N)=C(N)Oc4cc(C)oc(=O)c43)cc2c1 | MTCC 3008 | broth dilution | 200 µg/mL
O=C(CN1CCN(C(c2ccccc2)c2ccc(Cl)cc2)CC1)Cn1ccnc1 | ATCC 96918 | broth dilution | 25 µg/mL
COc1ccccc1C=O | AF293 | agar | 2000 µM
C[C@H]1[C@H](O)[C@@H](C)/C=C/C=C/C=C/C=C/C=C/C=C/C=C/[C@H](O[C@@H]2O[C@H](C)[C@@H](O)[C@H](N)[C@@H]2O)C[C@@H]2O[C@](O)(C[C@@H](O)C[C@@H](O)CC[C@H](O)[C@@H](O)C[C@@H](O)CC(=O)O[C@H]1C)C[C@H](O)[C@H]2C(=O)O | VPCI 190/96 | broth dilution | 1.95 µg/mL
COc1cc2cc(/C=C/C(=O)c3ccc(Br)cc3)c(Cl)nc2cc1OC | ATCC 26934 | - | >50 µg/mL
CCCCCOc1ccc(-c2cc(-c3ccc(C(=O)N[C@H]4C[C@@H](O)[C@@H](O)NC(=O)[C@@H]5[C@@H](O)[C@@H](C)CN5C(=O)[C@H]([C@H](O)CC(N)=O)NC(=O)[C@H]([C@H](O)[C@@H](O)c5ccc(O)c(OS(=O)(=O)O)c5)NC(=O)[C@@H]5C[C@@H](O)CN5C(=O)[C@H]([C@@H](C)O)NC4=O)cc3)no2)cc1 | TIMM0063 | - | ≤0.0039 µg/mL
Cc1ccc(Sc2nc3ccc(C)cc3cc2C2C(C#N)=C(N)Oc3c2c(=O)oc2ccccc32)cc1 | MTCC 3008 | broth dilution | 500 µg/mL
CCN1CCN(c2ccccc2OC)CC1 | ITCC 4517 | - | 500 µg/mL
O=[N+]([O-])c1ccc(CNC2CCc3c(O)cccc3C2)cc1 | - | - | >64 µM
C[C@H]1[C@H](O)[C@@H](C)/C=C/C=C/C=C/C=C/C=C/C=C/C=C/[C@H](O[C@@H]2O[C@H](C)[C@@H](O)[C@H](N)[C@@H]2O)C[C@@H]2O[C@](O)(C[C@@H](O)C[C@@H](O)CC[C@H](O)[C@@H](O)C[C@@H](O)CC(=O)O[C@H]1C)C[C@H](O)[C@H]2C(=O)O | - | - | 0.06–8 µg/mL
Cc1ccc(/C=C/C(=O)c2ccccc2)cc1 | ATCC 26934 | - | >50 µg/mL
Cc1ccc(-n2nc(C)c(C3C(C#N)=C(N)OC4=C3C(=O)CCC4)c2Oc2ccc(Cl)cc2)cc1 | MTCC 3008 | - | 250 µg/mL
Cc1ccc(/C=C/C(=O)N2C/C(=C\c3ccccc3)C(=O)/C(=C/c3ccccc3)C2)cc1 | 3 clinical isolates | - | >32 µg/mL
CCC(C)CC(C)CCCCCCCCC(=O)N[C@H]1C[C@@H](O)[C@H](NCCN)NC(=O)[C@@H]2[C@@H](O)CCN2C(=O)[C@H]([C@H](O)CCN)NC(=O)[C@H]([C@H](O)[C@@H](O)c2ccc(O)cc2)NC(=O)[C@@H]2C[C@@H](O)CN2C(=O)[C@H]([C@@H](C)O)NC1=O | ATCC 204305 | XTT | 128 µg/mL
c1ccc(N=C2SCC(c3ccccc3)N2CCN2C(=Nc3ccccc3)SCC2c2ccccc2)cc1 | - | broth dilution | 7.8 µg/mL
Cc1ccc2ccc(=O)oc2c1 | ATCC 16913 | - | 1000 µg/mL
CCCCCOc1ccc(-c2ccc(-c3ccc(C(=O)N[C@H]4C[C@@H](O)[C@@H](O)NC(=O)[C@@H]5[C@@H](O)[C@@H](C)CN5C(=O)[C@H]([C@H](C)O)NC(=O)[C@H]([C@H](O)[C@@H](O)c5ccc(O)cc5)NC(=O)[C@@H]5C[C@@H](O)CN5C(=O)[C@H]([C@H](C)O)NC4=O)cc3)cc2)cc1 | - | - | 0.015 µg/mL
Nc1ccc2oc(=O)ccc2c1 | ATCC 16913 | - | 1000 µg/mL
COc1ccc2nc(Oc3ccc(C)cc3)c(C3C(C#N)=C(N)Oc4c3c(=O)oc3ccccc43)cc2c1 | MTCC 3008 | - | >1000 µg/mL
Cc1ccc2nc(Sc3ccccc3)c(C3C(C#N)=C(N)Oc4c3c(=O)oc3ccc(C)cc43)cc2c1 | MTCC 3008 | broth dilution | 500 µg/mL
Cc1ccc(-n2nc(C)c(C3C(C#N)=C(N)OC4=C3C(=O)CC(C)(C)C4)c2Oc2ccc(Cl)cc2)cc1 | MTCC 3008 | - | 250 µg/mL
O=C(CN1CCN(C(c2ccccc2)c2ccc(Cl)cc2)CC1)Cn1ccnc1-c1ccccc1 | ATCC 96918 | broth dilution | 25 µg/mL
COc1ccc2nc(Oc3ccc(Cl)cc3)c(C3C(C#N)=C(N)Oc4c3c(=O)oc3ccccc43)cc2c1 | MTCC 3008 | - | >1000 µg/mL
CCN1CCN(c2ccccc2)CC1 | ITCC 4517 | - | 125 µg/mL
COc1ccc2nc(Sc3ccc(C)cc3)c(C3C(C#N)=C(N)Oc4c3c(=O)oc3ccccc43)cc2c1 | MTCC 3008 | broth dilution | 1000 µg/mL
O=C(O)c1ccc(/C=C/C(=O)c2ccc([N+](=O)[O-])cc2)cc1 | 3 clinical isolates | - | >32 µg/mL
COc1cc(O)c2c(c1)C(=O)c1c(cc3c(c1O)-c1c(cc(C)c(C(=O)N[C@H](C)C(=O)O)c1O)[C@H](O[C@@H]1O[C@H](C)[C@H](N)[C@H](O[C@@H]4OC[C@@H](O)[C@H](O)[C@@H]4O)[C@H]1O)[C@H]3O)C2=O | IAM2530 | - | 1.6 µg/mL
Cc1ccc2nc(Oc3ccccc3)c(C3C(C#N)=C(N)Oc4c3c(=O)oc3ccccc43)cc2c1 | MTCC 3008 | - | 1000 µg/mL
CCCCCCCCOc1ccc(-c2ccc(C(=O)NC3CC(NCCN)CNC(=O)[C@@H]4[C@@H](O)[C@@H](C)CN4C(=O)[C@@H](CO)NC(=O)[C@H]([C@H](O)Cc4ccccc4)NC(=O)[C@@H]4C[C@@H](O)CN4C(=O)[C@H]([C@@H](C)O)NC3=O)cc2)cc1 | 50 isolates | - | 0.125 µg/mL
COc1cccc(C=O)c1OC | AF293 | agar | 2500 µM
O=C1/C(=C/c2ccccc2)CN(C(=O)/C=C/c2ccccc2)C/C1=C\c1ccccc1 | 3 clinical isolates | - | >32 µg/mL
O=C(/C=C/c1ccc(Cl)cc1)c1ccc(Cl)cc1 | ATCC 26934 | - | >50 µg/mL
O=c1ccc2ccccc2o1 | ATCC 16913 | - | 1000 µg/mL
Cc1ccc(Sc2nc3ccccc3cc2C2C(C#N)=C(N)Oc3cc(C)oc(=O)c32)cc1 | MTCC 3008 | broth dilution | 200 µg/mL
CN[C@@H]1[C@H](O)[C@@H](O)[C@H](O[C@H]2c3cc(C)c(C(=O)N[C@H](C)C(=O)O)c(O)c3-c3c(cc4c(c3O)C(=O)c3cc(OC)cc(O)c3C4=O)[C@@H]2O)O[C@@H]1C | IAM2034 | - | 3.1 µg/mL
COc1ccc(C(=O)/C=C/c2ccc(C(=O)O)cc2)cc1OC | 3 clinical isolates | - | >32 µg/mL
CN(C/C=C/C#CC(C)(C)C)Cc1cccc2ccccc12 | NFI 4001 | - | 2 µg/mL
CC(C)=CCC/C(C)=C/CO | MTCC 2550 | broth dilution | 144 µg/mL
O=C(CCl)N1CCN(C(c2ccccc2)c2ccc(Cl)cc2)CC1 | ATCC 96918 | broth dilution | 50 µg/mL
Cc1ccc(Oc2nc3ccc(C)cc3cc2C2C(C#N)=C(N)Oc3c2c(=O)oc2ccccc32)cc1 | MTCC 3008 | - | 1000 µg/mL
Nc1[nH]c(=O)ncc1F | - | - | 0.5–64 µg/mL
Cc1ccc(-n2nc(C)c(C3C(C#N)=C(N)OC4=C3C(=O)CCC4)c2Oc2ccccc2)cc1 | MTCC 3008 | - | 500 µg/mL
O=c1ccc2cc(Cl)ccc2o1 | ATCC 16913 | - | 1000 µg/mL
Cc1cc(C)c(C(=O)/C=C/c2cc3ccccc3nc2Cl)o1 | ATCC 26934 | - | >50 µg/mL
COc1ccc2nc(Sc3ccc(Cl)cc3)c(C3C(C#N)=C(N)Oc4cc(C)oc(=O)c43)cc2c1 | MTCC 3008 | broth dilution | >1000 µg/mL
CC(C)=CCC/C(C)=C/CO | MTCC 2550 | broth dilution | 144 µg/mL
O=C1/C(=C/c2ccccc2)CN(C(=O)c2ccc(/C=C/C(=O)c3ccc(Cl)cc3)cc2)C/C1=C\c1ccccc1 | 3 clinical isolates | - | >32 µg/mL
Cc1ccc2nc(Sc3ccccc3)c(C3C(C#N)=C(N)Oc4cc(C)oc(=O)c43)cc2c1 | MTCC 3008 | broth dilution | 200 µg/mL
COc1ccc(Oc2c(C3C(C#N)=C(N)OC4=C3C(=O)CCC4)c(C)nn2-c2ccc(C)cc2)cc1 | MTCC 3008 | - | 500 µg/mL
COc1ccc2nc(Sc3ccc(Cl)cc3)c(C3C(C#N)=C(N)Oc4c3c(=O)oc3ccccc43)cc2c1 | MTCC 3008 | broth dilution | 1000 µg/mL
O=C1/C(=C/c2ccccc2)CN(C(=O)/C=C/c2ccc(Cl)c(Cl)c2)C/C1=C\c1ccccc1 | 3 clinical isolates | - | >32 µg/mL
Cc1ccc(Sc2nc3ccccc3cc2C2C(C#N)=C(N)Oc3c2c(=O)oc2ccccc32)cc1 | MTCC 3008 | broth dilution | 100 µg/mL
C[C@H]1[C@H](O)[C@@H](C)/C=C/C=C/C=C/C=C/C=C/C=C/C=C/[C@H](O[C@@H]2O[C@H](C)[C@@H](O)[C@H](N)[C@@H]2O)C[C@@H]2O[C@](O)(C[C@@H](O)C[C@@H](O)CC[C@H](O)[C@@H](O)C[C@@H](O)CC(=O)O[C@H]1C)C[C@H](O)[C@H]2C(=O)O | - | broth dilution | 0.12 µg/mL
O=C(O)c1ccc(/C=C/C(=O)c2ccc(Cl)cc2)cc1 | 3 clinical isolates | - | >32 µg/mL
N#CC1=C(N)Oc2c(c(=O)oc3ccccc23)C1c1cc2ccccc2nc1Oc1ccccc1 | MTCC 3008 | - | 500 µg/mL
C[C@H]1[C@H](O)[C@@H](C)/C=C/C=C/C=C/C=C/C=C/C=C/C=C/[C@H](O[C@@H]2O[C@H](C)[C@@H](O)[C@H](N)[C@@H]2O)C[C@@H]2O[C@](O)(C[C@@H](O)C[C@@H](O)CC[C@H](O)[C@@H](O)C[C@@H](O)CC(=O)O[C@H]1C)C[C@H](O)[C@H]2C(=O)O | NFI 4001 | - | 1 µg/mL
N#CC1=C(N)Oc2c(c(=O)oc3ccccc23)C1c1cc2ccccc2nc1Oc1ccc(Cl)cc1 | MTCC 3008 | - | 500 µg/mL
O=c1ccc2ccc([N+](=O)[O-])cc2o1 | ATCC 16913 | - | 250 µg/mL

Repeating the final 7 entries:

smiles	strain or isolate	method	result
Cc1ccc(Sc2nc3ccccc3cc2C2C(C#N)=C(N)Oc3c2c(=O)oc2ccccc32)cc1	MTCC 3008	broth dilution	100 µg/mL
C[C@H]1[C@H](O)[C@@H](C)/C=C/C=C/C=C/C=C/C=C/C=C/C=C/[C@H](O[C@@H]2O[C@H](C)[C@@H](O)[C@H](N)[C@@H]2O)C[C@@H]2O[C@](O)(C[C@@H](O)C[C@@H](O)CC[C@H](O)[C@@H](O)C[C@@H](O)CC(=O)O[C@H]1C)C[C@H](O)[C@H]2C(=O)O	-	broth dilution	0.12 µg/mL
O=C(O)c1ccc(/C=C/C(=O)c2ccc(Cl)cc2)cc1	3 clinical isolates	-	>32 µg/mL
N#CC1=C(N)Oc2c(c(=O)oc3ccccc23)C1c1cc2ccccc2nc1Oc1ccccc1	MTCC 3008	-	500 µg/mL
C[C@H]1[C@H](O)[C@@H](C)/C=C/C=C/C=C/C=C/C=C/C=C/C=C/[C@H](O[C@@H]2O[C@H](C)[C@@H](O)[C@H](N)[C@@H]2O)C[C@@H]2O[C@](O)(C[C@@H](O)C[C@@H](O)CC[C@H](O)[C@@H](O)C[C@@H](O)CC(=O)O[C@H]1C)C[C@H](O)[C@H]2C(=O)O	NFI 4001	-	1 µg/mL
N#CC1=C(N)Oc2c(c(=O)oc3ccccc23)C1c1cc2ccccc2nc1Oc1ccc(Cl)cc1	MTCC 3008	-	500 µg/mL
O=c1ccc2ccc([N+](=O)[O-])cc2o1	ATCC 16913	-	250 µg/mL